These results are taken from paper PMC9728880.

The exact form of at least one protein or probe is not confirmed.

In this data set the test system is rHis-ItrA (SPN3597, DeoR family regulator) (Salmonella enterica serovar Pullorum C79-13). Nature of the data set: EMSA. The note with it: 2 uM rHis-ItrA; EMSA: 10 mM Tris-HCl pH 8.0, 50 mM KCl, 1 mM DTT, 0.5 mM EDTA, 5% glycerol, 10 ug/ml BSA, 200 ng/ul poly(dI:dC), 25 ng DNA, 37 C 30 min; 6% native PAGE on ice; recombinant protein; residues 1-255; protein details: His (pColdI); label: FAM; probe letters rebuilt from the primers and the genome. For orientation: A gel shift assay detects complexes by their altered migration in electrophoresis.

In the case of “AACACCTCATACGTGGTTTAACATAATCCCTTATTGTACGCACCGCTAAAACGCGTTCATCGCGATCACGGCAGCAGACAGGTAAAAATGGCAACAAACCATCGTCGACCTGCAGGCA (double strand) [P-90~+10]”, the binding result is given as “binds”.
